{"source": "the supplement of paper PMC9492666", "conditions_in_all_cases": "72 h", "key": {"[1]": {"test_system": "HCC1937", "assay": "relative cell viability, compound alone, vs DMSO (fraction of DMSO control); higher = less growth inhibition"}, "[2]": {"test_system": "MDA-MB-231", "assay": "relative cell viability, compound alone, vs DMSO (fraction of DMSO control); higher = less growth inhibition"}, "[3]": {"test_system": "HCC1937", "assay": "relative cell viability, compound + RSL3, vs DMSO (fraction of DMSO control); higher = less growth inhibition"}, "[4]": {"test_system": "MDA-MB-231", "assay": "relative cell viability, compound + RSL3, vs DMSO (fraction of DMSO control); higher = less growth inhibition"}, "[5]": {"test_system": "HCC1937", "assay": "relative cell viability, compound + erastin, vs DMSO (fraction of DMSO control); higher = less growth inhibition"}, "[6]": {"test_system": "MDA-MB-231", "assay": "relative cell viability, compound + erastin, vs DMSO (fraction of DMSO control); higher = less growth inhibition"}}, "note": "The entries are a selection whose mix differs from that of the whole data set.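 Wherever relative cell viability, compound + RSL3, vs DMSO is given: breast cancer cell viability read out with the CCK-8 kit after co-treatment of each compound with the ferroptosis inducer RSL3.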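 Wherever relative cell viability, compound + erastin, vs DMSO is given: viability read by CCK-8 kit in 96-well plates, part of a combination screen pairing lipid-metabolism-targeting compounds with erastin.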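 Wherever relative cell viability, compound alone, vs DMSO is given: viability read out with the CCK-8 kit in 96-well plates, screening a set of 303 compounds acting on lipid metabolism targets.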"}
{"smiles": "O=P([O-])([O-])F.[Na+].[Na+]", "note": "[Disodium monofluorophosphate]", "values": [{"measurement": "relative cell viability", "setting": "[1]", "result": 0.954}, {"measurement": "relative cell viability", "setting": "[2]", "result": 0.946}]}
{"smiles": "COc1ccc(C(=O)CBr)cc1", "note": "[PTP Inhibitor II]", "values": [{"measurement": "relative cell viability", "setting": "[1]", "result": 0.711}, {"measurement": "relative cell viability", "setting": "[2]", "result": 0.896}]}
{"smiles": "O=P([O-])([O-])F.[Na+].[Na+]", "note": "[Disodium monofluorophosphate] + COC(=O)c1ccc([C@H]2c3[nH]c4ccccc4c3C[C@H](C(=O)OC)N2C(=O)CCl)cc1 [RSL3]", "values": [{"measurement": "relative cell viability", "setting": "[3]", "result": 0.83}, {"measurement": "relative cell viability", "setting": "[4]", "result": 0.592}]}
{"smiles": "COc1ccc(C(=O)CBr)cc1", "note": "[PTP Inhibitor II] + COC(=O)c1ccc([C@H]2c3[nH]c4ccccc4c3C[C@H](C(=O)OC)N2C(=O)CCl)cc1 [RSL3]", "values": [{"measurement": "relative cell viability", "setting": "[3]", "result": 0.507}, {"measurement": "relative cell viability", "setting": "[4]", "result": 0.623}]}
{"smiles": "COc1ccc(C(=O)CBr)cc1", "note": "[PTP Inhibitor II] + CCOc1ccccc1-n1c(C(C)N2CCN(C(=O)COc3ccc(Cl)cc3)CC2)nc2ccccc2c1=O [erastin]", "values": [{"measurement": "relative cell viability", "setting": "[5]", "result": 0.764}, {"measurement": "relative cell viability", "setting": "[6]", "result": 0.9}]}
{"smiles": "O=P([O-])([O-])F.[Na+].[Na+]", "note": "[Disodium monofluorophosphate] + CCOc1ccccc1-n1c(C(C)N2CCN(C(=O)COc3ccc(Cl)cc3)CC2)nc2ccccc2c1=O [erastin]", "values": [{"measurement": "relative cell viability", "setting": "[5]", "result": 0.946}, {"measurement": "relative cell viability", "setting": "[6]", "result": 1.07}]}
